Pooled drug test results. Numbers come from NIAID ChemDB, via PubChem.

Common to all: tests in culture; organism: Candida parapsilosis

ECn: concentration that inhibits the pathogen or its effect by n%.

compound	strain	method	measure	value
CN(C/C=C/C#CC(C)(C)C)Cc1cccc2ccccc12	52 clinical isolates	broth dilution	MIC50	4 µg/mL
C=CCc1ccc(OC)cc1			MIC90	0.016–0.025 µg/mL
O=Cc1cc(O)ccc1O	PYCC 2545	broth dilution / turbidity	EC50	0.68 µM
C1=C(c2cc3ccccc3o2)C2CCN1CC2	ATCC 22019	broth dilution	EC50	>16 µg/mL
c1ccc([Se][Se]c2ccccc2)cc1	ATCC 90018	broth dilution	MFC	>64 µg/mL
OC1(c2ccc(-c3ccccc3)cc2)CN2CCC1CC2	ATCC 22019	broth dilution	EC50	>16 µg/mL
O=C(O)c1ccccc1	ATCC 22019		EC50	0.09 µM
C[N+]1=CC2C(=O)c3nccc4ccnc(c34)C2C1			MIC80	>64 µg/mL
C[C@H](Cc1ccc(O)c(O)c1)[C@@H](C)Cc1ccc(O)c(O)c1	CCC 124-2000	broth dilution	MIC100	250 µg/mL
CCOC(=O)c1ccc(C2=CN3CCC2CC3)cc1	ATCC 22019	broth dilution	EC50	>16 µg/mL
C=CCc1ccc(O)c(-c2cc(CC=C)ccc2O)c1		broth dilution	MIC	80 µg/mL
O=c1cc(-c2ccccc2)oc2cc(O)c(O)c(O)c12	153.07		MIC	13 µg/mL
CC(C)OC(=O)c1ccc(C2=CN3CCC2CC3)cc1	ATCC 22019	broth dilution	EC50	>16 µg/mL
C[C@@H]1[C@H](O)[C@@H](C)/C=C/C=C/CC/C=C/C=C/C=C/C=C/C(O[C@H]2O[C@H](C)[C@@H](O)[C@H](N)[C@@H]2O)CC2O[C@](O)(CC(O)C(O)CCC(O)CC(O)CC(O)CC(=O)O[C@H]1C)CC(O)C2C(=O)O	MTCC 1744		MIC	150 µg/mL
CCC(C)n1ncn(-c2ccc(N3CCN(c4ccc(OC[C@H]5CO[C@](Cn6cncn6)(c6ccc(Cl)cc6Cl)O5)cc4)CC3)cc2)c1=O	52 clinical isolates	broth dilution	MIC90	0.25 µg/mL
C1=C(c2ccc(OCc3ccccc3)cc2)C2CCN1CC2	ATCC 22019	broth dilution	EC50	8 µg/mL
O=C(O)c1ccccc1O	PYCC 2545	broth dilution / turbidity	EC50	0.25 µM
COc1ccc2cc3[n+](cc2c1OC)CCc1cc2c(cc1-3)OCO2		broth dilution	MIC	80 µg/mL
CCCCCCCCNC1CCc2ccc(O)cc2C1			MIC	62 µM
CCC(C)CC(C)CCCCCCCCC(=O)N[C@H]1C[C@@H](O)[C@H](NCCN)NC(=O)[C@@H]2[C@@H](O)CCN2C(=O)[C@H]([C@H](O)CCN)NC(=O)[C@H]([C@H](O)[C@@H](O)c2ccc(O)cc2)NC(=O)[C@@H]2C[C@@H](O)CN2C(=O)[C@H]([C@@H](C)O)NC1=O	1529A	broth dilution	MIC	1 µg/mL
C[C@H]1[C@H](O)[C@@H](C)/C=C/C=C/C=C/C=C/C=C/C=C/C=C/[C@H](O[C@@H]2O[C@H](C)[C@@H](O)[C@H](N)[C@@H]2O)C[C@@H]2O[C@](O)(C[C@@H](O)C[C@@H](O)CC[C@H](O)[C@@H](O)C[C@@H](O)CC(=O)O[C@H]1C)C[C@H](O)[C@H]2C(=O)O	ATCC 22019	MTT	MIC	1.5 µg/mL

Blank or dashed fields: not listed here. a–b is a range or a potency band. A number after MIC or MFC names an inhibition level or a share of isolates. Rows are shuffled and stem from different studies.